# Assay results as given in patent publication US20090232831A1, “METHODS AND COMPOSITIONS FOR THE TREATMENT OR PREVENTION OF HUMAN IMMUNODEFICIENCY VIRUS INFECTION” (priority 2008, published 2009).
# System: 2G12 complex
# Assay: KD,surf of 2G12 complex on glycan-printed normal-NHS-density slide
# Format: binding
# Procedure: To further test its multivalent efficacy, 17 was immobilized onto a normal-NHS-density slide (FIG. 3d) at varying printing concentrations.
# Second generation Man9 dendron 17 on normal NHS density slide: Similar procedure as for normal density Man4 slide was used. Derivative of 17 with a linker connecting free amine was used for printing. The printing concentrations are 100, 80, 60, 40, 20, 10, 8, 6, 4, 2, 1, 0.8, 0.6, 0.4, 0.2, 0.1, 0.08, 0.06, 0.04, and 0.02 μM. The KD,surf of 2G12 complex was obtained (see Table 4) as previously described.
# Determination of KD,surf of glycodendron 17. The procedure is the same as that disclosed in Liang et al., “Quantitative analysis of carbohydrate-protein interactions using glycan microarrays: determination of surface and solution dissociation constants.” J Am Chem Soc 129:11177-11184 (2007), which is hereby incorporated by reference as if fully disclosed herein.
# [1] = lowest 2G12 concentration with signal to noise ratio greater than 10
substance,measurement,setting,value
Man4,detection limit of slide for the 2G12 complex,[1],3 g/mL
same,limit of detection of slide for 2G12,[1],3 µg/mL
same,critical printing concentration for 2G12 complex binding,same surface,40 M
